Pooled drug test results. Numbers come from NIAID ChemDB, via PubChem.

All rows: host cell toxicity; measure: CC50

Blank or dashed fields: not listed here. CCn is the concentration with n% toxicity to the cells. Lines come from different laboratories, so protocols vary.

{"SMILES": "COc1c2c(c(OC)c3ccccc13)CN(c1ccc(C)cc1Br)C(=N)C2", "cells": "J774A.1 macrophages", "read by": "neutral red", "result": "23.45 µM"}
{"SMILES": "CCCCN1C(c2sc(C)nc2C)=NNC1SCc1ccc(OC)cc1", "cells": "KBALB", "read by": "MTT", "result": ">100 µM"}
{"SMILES": "CCN(CC)C(=O)c1ccc2nc3ccccc3c(NC3CCN(Cc4ccccc4)CC3)c2c1", "cells": "BHK", "result": "159 µM"}
{"SMILES": "O=[N+]([O-])c1ccc(SCc2ccccc2)nc1", "cells": "CEM", "read by": "cell count", "result": "46 µg/mL"}
{"SMILES": "C=CCN(C(=O)[C@H](Cc1cc(F)cc(F)c1)NC(=O)c1nccnc1C(=O)N[C@@H](Cc1cc(F)cc(F)c1)C(=O)N(CC=C)c1ccc(OC)cc1)c1ccc(OC)cc1", "cells": "MT-2", "read by": "XTT", "result": "100 µM"}
{"SMILES": "Cc1nc(C)c(-c2n[nH]c(=S)n2-c2ccc3ccccc3c2)s1", "cells": "143B", "read by": "MTT", "result": ">100 µM"}
{"SMILES": "C=CCNc1nc(N)nc2c1ncn2/C=C1/C[C@@H]1CO", "cells": "BSCL-1", "result": ">184 µM"}
{"SMILES": "CCOC(=O)CCCCCOc1cccc(CN(C(=O)c2ccc(-c3cccc(NC=O)c3)cc2)C(C)C)c1", "cells": "BJ", "result": ">20 µM"}
{"SMILES": "N=c1cc2c(cn1-c1ccccc1Br)C(=O)c1ccccc1C2=O", "cells": "J774A.1 macrophages", "read by": "neutral red", "result": "31.24 µM"}
{"SMILES": "O=S(=O)(c1ccc(Cl)c[n+]1[O-])C(Cl)c1ccccc1", "cells": "CEM", "read by": "cell count", "result": "2.3 µg/mL"}
{"SMILES": "COC1=CC(=O)c2c(O)c(C)c3c(c2C1=O)OC(C)C3", "cells": "MDA-MB-231", "read by": "MTT", "result": "110.2 µg/mL"}
{"SMILES": "CC(C)c1ccc(C(C)C)c(CS(=O)c2cccc[n+]2[O-])c1", "cells": "CEM", "read by": "cell count", "result": "11 µg/mL"}
{"SMILES": "CC(C)N(Cc1cccc(OCCCCCC(=O)OC(=O)O)c1)C(=O)c1ccc(-c2cccc(Oc3ccccc3)c2)cc1", "cells": "BJ", "result": "<13.5 µM"}
{"SMILES": "Nc1ncnc2c1c(Br)cn2COCCO", "cells": "BSC-1", "result": ">100 µM"}
{"SMILES": "Nc1nc(OCC2CC2)c2ncn(/C=C3/C[C@@H]3CO)c2n1", "cells": "BSCL-1", "result": "130 µM"}
{"SMILES": "CN(C)CCCn1c(N)c(-c2nc3ccccc3[nH]2)c2nc(C#N)c(C#N)nc21", "cells": "L6 rat skeletal myoblasts", "read by": "resazurin / fluorescence", "result": "1 µM"}
{"SMILES": "CN1CCN(C(=O)c2ccc3nc4ccccc4c(NC4CCN(Cc5ccccc5)CC4)c3c2)CC1", "cells": "BHK", "result": "150 µM"}
{"SMILES": "NNC(=O)c1ccncc1", "cells": "J774A.1 macrophages", "read by": "neutral red", "result": ">100 µM"}
{"SMILES": "CC(C)N(Cc1cccc(OCCCCCC(=O)OC(=O)O)c1)C(=O)c1ccc(-c2cccc(S(C)(=O)=O)c2)cc1", "cells": "BJ", "result": ">20 µM"}
{"SMILES": "N#Cc1nc2c(-c3nc4ccccc4[nH]3)c(N)n(CCc3ccc(F)cc3)c2nc1C#N", "cells": "L6 rat skeletal myoblasts", "read by": "resazurin / fluorescence", "result": "129 µM"}
{"SMILES": "CCCSc1nc(N)nc2c1ncn2/C=C1/C[C@@H]1CO", "cells": "MEF", "result": ">343 µM"}
{"SMILES": "COC1=CC(=O)c2c(O)c3c(c(O)c2C1=O)CC(C)(O)OC3", "cells": "SupT1", "read by": "MTT", "result": "5.1 µg/mL"}
{"SMILES": "COc1ccc(N(C)C(=O)[C@H](Cc2ccccc2)NC(=O)Cn2c(=O)c3ccccc3n(CC(=O)N[C@@H](Cc3ccccc3)C(=O)N(C)c3ccc(OC)cc3)c2=O)cc1", "cells": "MT-2", "read by": "XTT", "result": "100 µM"}
{"SMILES": "N#Cc1nc2c(-c3nc4ccccc4[nH]3)c(N)n(CCCC(F)(F)F)c2nc1C#N", "cells": "L6 rat skeletal myoblasts", "read by": "resazurin / fluorescence", "result": "81 µM"}
{"SMILES": "O=C1NC(=Nc2ccc(F)c(Cl)c2)S/C1=C\\c1ccc(-c2ccc(C(=O)O)c(O)c2)o1", "cells": "Ramos", "read by": "MTT", "result": "3.1 µM"}
{"SMILES": "COc1ccc(N(C)C(=O)[C@H](Cc2ccccc2)NC(=O)c2cncc(C(=O)N[C@@H](Cc3ccccc3)C(=O)N(C)c3ccc(OC)cc3)n2)cc1", "cells": "MT-2", "read by": "XTT", "result": "100 µM"}
{"SMILES": "O=C(O)c1ccc(-c2ccc(/C=C3\\SC(=S)N(CCc4ccc(Cl)c(Cl)c4)C3=O)o2)cc1O", "cells": "Ramos", "read by": "MTT", "result": ">100 µM"}
{"SMILES": "CCCOc1nc(N)nc2c1ncn2/C=C1/C[C@@H]1CO", "cells": "BSCL-1", "result": ">182 µM"}
{"SMILES": "CCN(CC)CCCC(C)n1c(N)c(-c2nc3ccccc3s2)c2nc(C#N)c(C#N)nc21", "cells": "L6 rat skeletal myoblasts", "read by": "resazurin / fluorescence", "result": "9 µM"}
{"SMILES": "CCCCCCCC(c1cc(C)ccc1C)S(=O)(=O)c1cccc[n+]1[O-]", "cells": "CEM", "read by": "cell count", "result": "3.4 µg/mL"}
{"SMILES": "N#Cc1nc2c(-c3nc4ccccc4[nH]3)c(N)n(CCCn3ccnc3)c2nc1C#N", "cells": "L6 rat skeletal myoblasts", "read by": "resazurin / fluorescence", "result": ">100 µM"}
{"SMILES": "CC(=O)O[C@H]1CC[C@@]2(C)[C@@H](CC[C@@]3(C)[C@H]2CC=C2[C@@H]([C@H](C)CC/C=C(\\C)C(=O)O)CC[C@@]23C)C1(C)C", "cells": "1A2", "read by": "XTT", "result": "19.4 µg/mL"}
{"SMILES": "COc1c2c(c(OC)c3ccccc13)CN(c1ccc([N+](=O)[O-])cc1)C(=N)C2", "cells": "J774A.1 macrophages", "read by": "neutral red", "result": "49.23 µM"}
{"SMILES": "Cc1ccc(CSc2ccccn2)cc1C", "cells": "CEM", "read by": "cell count", "result": "7.1 µg/mL"}
{"SMILES": "N#Cc1nc2c(-c3nc4ccccc4[nH]3)c(N)n(Cc3ccc(O)cc3)c2nc1C#N", "cells": "L6 rat skeletal myoblasts", "read by": "resazurin / fluorescence", "result": "4 µM"}
{"SMILES": "Nc1nc2c(ncn2C[C@@H]2CC[C@@H](P(=O)(O)O)O2)c(=O)[nH]1", "cells": "3T3-L1", "result": "5.4 µg/mL"}
{"SMILES": "CSC1NN=C(c2sc(C)nc2C)N1C1C2CC3CC(C2)CC1C3", "cells": "143B", "read by": "MTT", "result": "<100 µM"}
{"SMILES": "O=S(=O)(Cc1c(Cl)c(Cl)c(Cl)c(Cl)c1Cl)c1cccc[n+]1[O-]", "cells": "CEM", "read by": "cell count", "result": "1.2 µg/mL"}
{"SMILES": "COC(=O)C1=C2Nc3ccccc3[C@@]23CCN2C[C@]4(C[C@@H]5C[C@]67CCO[C@H]6CCC6NC[C@@]8(c9cccc(OC)c9N(C4)[C@@H]58)[C@@H]67)[C@@H]4OCCC4(C1)[C@H]23", "cells": "J-Lat Tat-GFP 82", "read by": "absorbance", "result": ">10 µM"}
{"SMILES": "Nc1nc(NC2CC2)c2ncn(/C=C3/C[C@@H]3CO)c2n1", "cells": "BSCL-1", "result": "110 µM"}
{"SMILES": "CC(C)=CCC/C(C)=C/Cc1c(O)cc(O)c(C/C=C(\\C)CCC=C(C)C)c1C(=O)c1c(O)cc(O)cc1O", "cells": "1A2", "read by": "XTT", "result": "<7.8 µg/mL"}
{"SMILES": "N=c1cc2c(cn1-c1cccc(C(=O)O)c1)C(=O)c1ccccc1C2=O", "cells": "J774A.1 macrophages", "read by": "neutral red", "result": "153 µM"}
{"SMILES": "Cc1ccc[n+]([O-])c1S(=O)(=O)C(C)c1cccc([N+](=O)[O-])c1C", "cells": "CEM", "read by": "cell count", "result": "96 µg/mL"}
{"SMILES": "CN(C(=O)[C@H](Cc1cc(F)cc(F)c1)NC(=O)c1cccc(C(=O)N[C@@H](Cc2cc(F)cc(F)c2)C(=O)N(C)c2ccc3scnc3c2)c1Cl)c1ccc2scnc2c1", "cells": "MT-2", "read by": "XTT", "result": "100 µM"}
{"SMILES": "Cc1ccc(C)c(CS(=O)c2c(C)ccc[n+]2[O-])c1", "cells": "CEM", "read by": "cell count", "result": "42 µg/mL"}
{"SMILES": "COC1=CC(=O)c2c(O)c(C)c3cc(C)oc3c2C1=O", "cells": "MDA-MB-231", "read by": "MTT", "result": "4.7 µg/mL"}
{"SMILES": "O=C1N=C(N2CCOCC2)S/C1=C\\c1ccc(-c2ccc(C(=O)O)c(O)c2)o1", "cells": "HEK 293", "read by": "MTT", "result": "53 µM"}
{"SMILES": "COc1c2c(c(OC)c3ccccc13)CN(c1ccc(C)cc1)C(=N)C2", "cells": "J774A.1 macrophages", "read by": "neutral red", "result": "23.25 µM"}
{"SMILES": "C=CCN(C(=O)[C@H](Cc1cc(F)cc(F)c1)NC(=O)c1cccc(S(=O)(=O)N[C@@H](Cc2cc(F)cc(F)c2)C(=O)N(CC=C)c2ccc(OC)cc2)c1)c1ccc(OC)cc1", "cells": "MT-2", "read by": "XTT", "result": "1.6 µM"}
{"SMILES": "N#Cc1ccccc1CS(=O)(=O)c1cccc[n+]1[O-]", "cells": "CEM", "read by": "cell count", "result": "15 µg/mL"}
{"SMILES": "CCN(CC)CCNc1cc(C)nc2c1ccc1c2ccc2c(NCCN(CC)CC)cc(C)nc21", "cells": "Macrophage line RAW 264.7", "read by": "MTT", "result": "0.00348 µM"}
{"SMILES": "COc1ccc(/C=C(/C#N)Sc2cccc[n+]2[O-])cc1", "cells": "CEM", "read by": "cell count", "result": "35 µg/mL"}
{"SMILES": "Cc1nc(C)c(C(=O)NNC(=S)NC23CC4CC(CC(C4)C2)C3)s1", "cells": "143B", "read by": "MTT", "result": ">100 µM"}
{"SMILES": "Cc1ccc([N+](=O)[O-])cc1CS(=O)(=O)c1cccc[n+]1[O-]", "cells": "CEM", "read by": "cell count", "result": "57 µg/mL"}
{"SMILES": "[2H]c1nc2cc(N(C)C(=O)[C@H](Cc3cc(F)cc(F)c3)NC(=O)NS(=O)(=O)N[C@@H](Cc3cc(F)cc(F)c3)C(=O)N(C)c3ccc4sc([2H])nc4c3)ccc2s1", "cells": "MT-2", "read by": "XTT", "result": "58.7 µM"}
{"SMILES": "N#CC(c1ccc(F)cc1)S(=O)c1cccc[n+]1[O-]", "cells": "CEM", "read by": "cell count", "result": "0.72 µg/mL"}
{"SMILES": "O=C(NCc1cccs1)c1nn2c(c1Cl)N[C@H](c1ccco1)C[C@@H]2C(F)(F)F", "cells": "Caco2", "read by": "ATP", "result": ">100 µM"}
{"SMILES": "Cc1ccc(Cl)c(C(C)S(=O)c2cccc[n+]2[O-])c1", "cells": "CEM", "read by": "cell count", "result": "0.19 µg/mL"}
{"SMILES": "CC(C)N(Cc1ccccc1OCC(=O)O)C(=O)c1ccc(-c2ccc3c(c2)OCO3)cc1", "cells": "KEP293", "result": ">20 µM"}
{"SMILES": "Cc1ccc(C)c(CS(=O)c2ccc(Cl)c[n+]2[O-])c1", "cells": "CEM", "read by": "cell count", "result": "14 µg/mL"}
{"SMILES": "Cc1nnsc1C(=O)NNC(=S)Nc1ccc2ccccc2c1", "cells": "KBALB", "read by": "MTT", "result": ">100 µM"}
{"SMILES": "Cc1ccc(C)c(C(Br)S(=O)(=O)c2cccc[n+]2[O-])c1", "cells": "CEM", "read by": "cell count", "result": "81 µg/mL"}
{"SMILES": "N=c1cc2c(cn1-c1ccc(Br)cc1)C(=O)c1ccccc1C2=O", "cells": "J774A.1 macrophages", "read by": "neutral red", "result": "15.34 µM"}
{"SMILES": "Cc1ccc(C)c(CS(=O)c2cccc[n+]2[O-])c1C", "cells": "CEM", "read by": "cell count", "result": "1.2 µg/mL"}
{"SMILES": "N#Cc1nc2c(-c3nc4ccccc4[nH]3)c(N)n(CCc3cccc(Cl)c3)c2nc1C#N", "cells": "L6 rat skeletal myoblasts", "read by": "resazurin / fluorescence", "result": "52 µM"}

Repeating the final 7 entries:

SMILES	cells	read by	result
CC(C)N(Cc1ccccc1OCC(=O)O)C(=O)c1ccc(-c2ccc3c(c2)OCO3)cc1	KEP293		>20 µM
Cc1ccc(C)c(CS(=O)c2ccc(Cl)c[n+]2[O-])c1	CEM	cell count	14 µg/mL
Cc1nnsc1C(=O)NNC(=S)Nc1ccc2ccccc2c1	KBALB	MTT	>100 µM
Cc1ccc(C)c(C(Br)S(=O)(=O)c2cccc[n+]2[O-])c1	CEM	cell count	81 µg/mL
N=c1cc2c(cn1-c1ccc(Br)cc1)C(=O)c1ccccc1C2=O	J774A.1 macrophages	neutral red	15.34 µM
Cc1ccc(C)c(CS(=O)c2cccc[n+]2[O-])c1C	CEM	cell count	1.2 µg/mL
N#Cc1nc2c(-c3nc4ccccc4[nH]3)c(N)n(CCc3cccc(Cl)c3)c2nc1C#N	L6 rat skeletal myoblasts	resazurin / fluorescence	52 µM